According to paper PMC10548512 (Chemical Science, 2023):

Tested on: H1N1pdm09 virus (A/Netherlands/602/2009) I375F mutant
Conditions: luciferase reporter assay; for IC50: read-out: IC50 (nM) Neth09 I375F, infection of HeLa R19 cells, I375F resistance mutant, dilution series starting from 1 µM, three biological replicates

## CC[C@H](C)[C@@H]1NC(=O)[C@H](CO)NC(=O)CNC(=O)CNC(=O)[C@H](CC(=O)O)NC(=O)[C@@H]2CCCN2C(=O)[C@H](Cc2c[nH]c3ccccc23)NC(=O)[C@H](CC(N)=O)NC(=O)[C@H](Cc2ccccc2)NC(=O)[C@H](C(C)C)NC(=O)[C@H](Cc2ccccc2)NC(=O)[C@H](CC(C)C)NC(=O)[C@@H]2CSC(=N2)c2cc(ccn2)C[C@@H](C(=O)NCC(N)=O)NC(=O)[C@H](CCCCN)NC(=O)[C@H](CC(N)=O)NC(=O)[C@H]([C@@H](C)O)NC1=O [M5]
1 µM peptide, mutant resistant against previous hits (Fig. S3)
  Infection inhibition in single-concentration screen, I375F mutant: most potent activity
  IC50: 71.7 nM

## CC[C@H](C)[C@@H]1NC(=O)CNC(=O)[C@H](CC(N)=O)NC(=O)[C@@H]2CCCN2C(=O)[C@H](C(C)C)NC(=O)[C@H](Cc2ccccc2)NC(=O)[C@H](Cc2ccc(O)cc2)NC(=O)[C@@H]2CCCN2C(=O)[C@H](Cc2ccccc2)NC(=O)[C@H](Cc2ccc(O)cc2)NC(=O)[C@H](CC(C)C)NC(=O)[C@@H]2CSC(=N2)c2cc(ccn2)C[C@@H](C(=O)NCC(N)=O)NC(=O)[C@H](CCC(=O)O)NC(=O)[C@H](CC(C)C)NC(=O)[C@H]([C@@H](C)CC)NC(=O)[C@H](CC(N)=O)NC1=O [M7]
  IC50: 330 nM
